Assay results reported in PMC7182600 (Influenza and Other Respiratory Viruses, 2020).

Tested on: NA of rPhuket3073/Yamagata‐E117A
Format: biochemical, influenza B virus

Question: For CCC(CC)O[C@@H]1C=C(C(=O)O)C[C@H](N)[C@H]1NC(C)=O [Oseltamivir carboxylate], which “fold differences in IC50” value is on record?
Answer: The value was 38 075.9 ± 7365.0 (586.6) fold.
